# PubChem BioAssay AID624099 | ICCB-Longwood, 2012
# Aim: 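Human genes that papillomavirus E2 requires to repress the HPV18 LCR promoter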 (primary screen)
# Cells: human C33A cervical carcinoma cells (HPV-negative) stably expressing BPV1 E2 and an HPV18 LCR luciferase reporter
# Reagent: siRNA pool against human genes, 40 nM
# Timing: 72 h
# Detection: 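HPV18 LCR reporter light per well, converted to plate-wise z-scores that exclude control wells, and averaged over triplicate plates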
# Reading the numbers: mean z-score and z-score: higher = stronger reporter signal, weaker E2 silencing
# Rule for the call: 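Hit if mean z-score reaches 2 and two or more of three replicate z-scores also reach 2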
# The whole screen tested about 21,000 reagents; this is a part drawn at random. In the full data, 497 (2.4%) got an active call. 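Higher z means weaker E2 silencing; only reporter increases were scored, and knock-downs that hurt cell survival may mask genuine repressor factors.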
Target gene,mean z-score,"z-score, replicate A","z-score, replicate B","z-score, replicate C",Call
CLDND2,0.96,0.92,1.2,0.75,inactive
MAFK,1.02,0.82,0.8,1.45,inactive
ZCWPW1,-0.22,-0.54,0.05,-0.17,inactive
ART5,-0.29,-0.11,-0.4,-0.36,inactive
LOC400944 (retired record),0.93,1.21,0.89,0.7,inactive
LOC401628 (retired record),0.39,0.34,0.67,0.14,inactive
YBX2,0.49,0.1,0.48,0.9,inactive
LOC339771 (retired record),-0.07,-0.18,-0.02,-0.01,inactive
GTF2E2,1.58,1.26,1.49,1.99,inactive
ECRG4,-0.39,0.04,-0.32,-0.88,inactive
SERPINA5,1.78,1.77,1.77,1.8,inactive
LOC391405 (retired record),-1.54,-1.37,-1.6,-1.65,inactive
TMEM143,-0.73,-1.32,-0.66,-0.22,inactive
PIP4K2C,0.22,0.25,0.15,0.25,inactive
OR2A4,-0.59,-0.58,-0.63,-0.57,inactive
SDF4,-0.27,-0.78,0.25,-0.28,inactive
ARHGAP28,-0.1,-0.14,-0.05,-0.11,inactive
RECQL5,1.59,1.37,1.72,1.67,inactive
MGST3,-0.9,-0.94,-0.81,-0.95,inactive
FANCL,-0.29,-0.29,-0.68,0.09,inactive
DAG1,0.34,0.19,0.52,0.33,inactive
SMG1,-0.69,-0.23,-0.92,-0.92,inactive
SMPD5,0.06,0.02,0,0.16,inactive
TMEM268,0.76,0.4,0.77,1.11,inactive
ACER3,0.54,-0.04,1.05,0.59,inactive

Next part; the last 3 above are carried over.
Target gene,mean z-score,"z-score, replicate A","z-score, replicate B","z-score, replicate C",Call
SMPD5,0.06,0.02,0,0.16,inactive
TMEM268,0.76,0.4,0.77,1.11,inactive
ACER3,0.54,-0.04,1.05,0.59,inactive
PSMC5,-0.99,-0.99,-1.07,-0.93,inactive
LINC01579,-0.1,-0.51,-0.02,0.24,inactive
LRRC10,-0.61,-0.58,-0.37,-0.89,inactive
SNRPA,1,1.08,0.63,1.3,inactive
VPS8,0.02,-0.09,0.23,-0.08,inactive
RALY,0.9,1.17,0.83,0.72,inactive
TMEM169,-0.46,-0.25,-0.37,-0.75,inactive
HCG9,0.65,0.82,0.45,0.68,inactive
ARHGAP40,0.15,0,0.1,0.36,inactive
CDH5,0.03,0.12,-0.12,0.08,inactive
SLC30A6,-0.13,0.29,-0.31,-0.35,inactive
C14orf132,-0.83,-0.78,-0.94,-0.76,inactive
MEX3B,1.08,0.78,1.49,0.95,inactive
DCP1B,-0.18,-0.18,0.03,-0.4,inactive
